Compound potency records, mixed from different reports. Data source: NIAID ChemDB in PubChem.

All rows: growth or infection tests; agent: Candida tropicalis; read-out: MIC

Neighbouring rows are from separate reports.

compound	strain	read by	value
CC1C(=O)N(CCCc2ccccc2)C(=O)C1C	CCC 131-2000	broth dilution / turbidity	125 µg/mL
CC(=O)N1CCN(c2ccc(OC[C@H]3CO[C@](Cn4ccnc4)(c4ccc(Cl)cc4Cl)O3)cc2)CC1	ATCC 66029	broth dilution	3 µg/mL
CN1CCC[C@H]1CCCCCCCCCc1ccccc1	HB		25 µg/mL
CCCCCCCCCCCCCCCC(=O)NC(CCCCN)C(=O)NC(CCCCN)C(N)=O	4851	broth dilution	2 µg/mL
CC1CC(=O)N(CCCCc2ccccc2)C1=O	CCC 131-2000	broth dilution / turbidity	125 µg/mL
Nc1ccc(O)c2ncccc12	Berkout KCCM 50662		0.8 µg/mL
Nc1scc2c1c(=O)oc1ccc3ccccc3c12	ATCC 750	broth dilution	32 µg/mL
COc1cc(O)c2c(c1)C(=O)c1c(cc3c(c1O)-c1c(cc(C)c(C(=O)NC(CO)C(=O)O)c1O)[C@H](OC1OC(C)C(O)C(OC4OCC(O)C(O)C4O)C1O)C3O)C2=O	(AMPB-R)		3.12 µg/mL
CCCCCSc1ccnc(C(N)=S)c1	156		>500 µM
O=[N+]([O-])c1cccc(/C=N\O)c1			3010 µM
O=C(CCn1ccnc1)c1ccc2ccccc2c1	RTCC 1065	broth dilution	>64 µg/mL
COc1ccc(C2CC(c3ccc4ccccc4c3)=Cc3[nH][nH]c(=O)c32)cc1			100 µg/mL
NC(=S)c1cc(SC2CCCCC2)ccn1	156		>500 µM
Fc1ccc(C(Cn2ccnc2)NC/C=C/c2ccccc2)cc1	CBS 94 CA 44 CA 36		50 µg/mL
O=C(CCn1ccnc1)c1ccc(-c2ccccc2)cc1	RTCC 1095	broth dilution	>64 µg/mL
C[C@H]1N(C(=O)c2ccc(C(F)(F)F)cc2)CCO[C@@]1(Cn1cncn1)c1ccc(F)cc1F	Isolate 1		64 µg/mL
Nc1ncccc1-c1cc(Cc2ccc(COc3ccccn3)cc2)no1	8684	broth dilution	0.03 µg/mL
Cc1ccccc1N1C(=O)CC(C)C1=O	CCC 131-2000	broth dilution / turbidity	125 µg/mL
O=c1[nH][nH]c2c1C(c1ccc([N+](=O)[O-])cc1)CC(c1ccc3ccccc3c1)=C2			100 µg/mL
OC(CCn1ccnc1)c1ccc(-c2ccccc2)cc1	RTCC 1065	broth dilution	>64 µg/mL
CCCCSc1ccnc(C(N)=S)c1	156		>500 µM
Fc1ccc(C(Cn2ccnc2)NCc2cccc3ccccc23)cc1	CBS 94 CA 44 CA 42		36.7 µg/mL
CC(C)(O)c1cn(-c2ccc(Cl)cc2)nn1	URM 1150	broth dilution	128 µg/mL
OC(CCn1ccnc1)c1ccc(Br)cc1	RTCC 1065	broth dilution	>64 µg/mL
C/C(=N/O)C(Cl)(Cl)Cl			3220 µM
Clc1ccc(C(Cn2ccnc2)NC/C=C/c2ccccc2)cc1	CBS 94 CA 44 CA 37		50 µg/mL
COc1ccc(N/N=c2/sc3nnc(-c4ccncc4)n3nc2C)cc1	ATCC 66029	broth dilution	12.5 µg/mL
CCCCCCSc1ccnc(C(N)=S)c1	156		>500 µM
C(=C\c1ccccc1)/CNC(Cn1ccnc1)c1ccccc1	CBS 94 CA 44 CA 34		47.8 µg/mL
CCCCCCCCCCCCCCCCn1cc[n+](C)c1	72A	broth dilution	0.014 µg/mL
Clc1ccc(C(Cn2ccnc2)NCc2cccc3ccccc23)c(Cl)c1	CBS 94 CA 44 CA 43		36.7 µg/mL
O=[N+]([O-])c1ccc(/C=N\O)cc1			3010 µM
O=c1[nH][nH]c2c1C(c1ccc(Br)cc1)CC(c1ccc3ccccc3c1)=C2			12.5 µg/mL
CCCSc1ccnc(C(N)=S)c1	156		250 µM
CC1CC2=C(O1)c1ccccc1C(=O)C2=O	Clinical isolate	broth dilution	16 µg/mL
CCCCCCCSc1ccnc(C(N)=S)c1	156		>500 µM
C[C@@H]1CC(=O)N(CCc2ccccc2)C1=O	CCC 131-2000	broth dilution / turbidity	62.5 µg/mL
O/N=C\c1ccccc1O			3600 µM
Cc1ccccc1N/N=c1/sc2nnc(-c3ccncc3)n2nc1C	ATCC 66029	broth dilution	>100 µg/mL
CCCCCCCCCCSc1ccnc(C(N)=S)c1	156		>500 µM
OC(CCn1ccnc1)c1cccc(C(O)c2ccc(Cl)cc2)c1	RTCC 1065	broth dilution	>64 µg/mL
c1ccc(-c2ccc(CNC(Cn3ccnc3)c3ccccc3)cc2)cc1	CBS 94 CA 44 CA 38		1.9 µg/mL
CC[C@@H]([C@H](C)O)n1ncn(-c2ccc(N3CCN(c4ccc(OC[C@@H]5CO[C@@](Cn6cncn6)(c6ccc(F)cc6F)C5)cc4)CC3)cc2)c1=O	8662	broth dilution	0.03 µg/mL
O=C(CCn1ccnc1)c1ccc(Br)cc1	RTCC 1095	broth dilution	>64 µg/mL
O/N=C\c1ccc(F)cc1			3600 µM
COc1cc(O)c2c(c1)C(=O)c1c(cc3c(c1O)-c1c(cc(C)c(C(=O)NC(CO)C(=O)O)c1O)[C@H](OC1OC(C)C(O)C(OC4OCC(O)C(O)C4O)C1O)C3O)C2=O	Isolate 93-231 fluconazole-resistant		8 µg/mL
O=C(CCn1ccnc1)c1cccc(C(O)c2ccc(Cl)c(Cl)c2)c1	RTCC 1065	broth dilution	64 µg/mL

For reference, 6 entries again:

compound | strain | read by | value
COc1cc(O)c2c(c1)C(=O)c1c(cc3c(c1O)-c1c(cc(C)c(C(=O)NC(CO)C(=O)O)c1O)[C@H](OC1OC(C)C(O)C(OC4OCC(O)C(O)C4O)C1O)C3O)C2=O | Isolate 93-231 fluconazole-resistant |  | 8 µg/mL
O/N=C\c1ccccc1O |  |  | 3600 µM
CCCCCCCCCCCCCCCCn1cc[n+](C)c1 | 72A | broth dilution | 0.014 µg/mL
O=C(CCn1ccnc1)c1ccc(Br)cc1 | RTCC 1095 | broth dilution | >64 µg/mL
Clc1ccc(C(Cn2ccnc2)NC/C=C/c2ccccc2)cc1 | CBS 94 CA 44 CA 37 |  | 50 µg/mL
O/N=C\c1ccc(F)cc1 |  |  | 3600 µM

An empty or dashed field is not shown.